Results on three sequences are retold here after publication PMC10052836.

For at least one entry, the source does not settle the construct or the ends of the probe. At least one verdict was read from the data and is not stated in words by the source. Where a protein sequence is shown, tags need not be part of it.

Data set [1] concerns the target T1, DzrR25416 (Burkholderia cepacia ATCC 25416) (UniProt A0AAX2RWE4).
T1 sequence (looked up, limits assumed): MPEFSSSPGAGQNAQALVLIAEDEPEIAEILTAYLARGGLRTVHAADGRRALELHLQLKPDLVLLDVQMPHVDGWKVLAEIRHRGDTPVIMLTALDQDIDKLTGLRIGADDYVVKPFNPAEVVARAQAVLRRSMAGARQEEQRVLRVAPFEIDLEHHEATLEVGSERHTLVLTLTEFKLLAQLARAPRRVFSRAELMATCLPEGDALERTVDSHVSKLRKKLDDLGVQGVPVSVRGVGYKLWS
Nature of the data set: EMSA. The conditions noted are these: EMSA: LightShift Chemiluminescent EMSA Kit, 20 ul, 20 fmol probe, 28 C 20 min, 6% native PAGE, recombinant protein. A general note: In EMSA bound probe runs differently from free probe, usually more slowly.

Data set [2] addresses T1, DzrR25416 (Burkholderia cepacia ATCC 25416). Description: DNase I footprinting. To be noted: footprinting: about 400 ng probe, 1 uM protein, 40 ul, 25 C 30 min, salt and pH not given, recombinant protein, probe letters rebuilt from the primers and the genome.

On to “TCATGGGAACGCGCGAAGGTTCCCGGTTATGGGAGCACGCGCTCCGGATGTAAAGCGCCGACACCGCCGCCGCATCGCCGTTCCGCGATTCTTTCGCCGCCTCCATCAAACCTCCATCTTTCCGCACAAAAAACTCCATCGGGCACACGCACACTGCGAACCGAAAATGCGGGCCATCGGGTGCCTGCGTCCCATGGAGTCCACATGAAGAATCAGAAACGA (double strand) [PdesB25416]”, for which the binding result in data set [1] (probe letters rebuilt from the primers and the genome) is on record as “binds”; in data set [2] (1 uM DzrR25416, dzrR box) it was “binds”. With “TGGAGAAATATGGAGATATGATGGAGAACCGCATTTT (double strand) [PdesAB(37)]”, the binding result in data set [1] (label: 5' biotin on strand 1) is listed as “binds”. For “AGCAATGGGCATGGATTGCGTATGAACAGTCATTGGTCAGCTCATGATAAAAAATGCGGTTCTCCATCATATCTCCATATTTCTCCAACGGAAACCGCACACAGAAAATGCACACTCTCTCAGTCTGGCCTTACTATGGTCGGTAAATAGGGATTACAACGTCATATGAATACTAAGAAATCGCATCAATATCCGATCGCCTGCATGTTACCGGCCTGTCGG (double strand) [PdesAB]”, in data set [2] (1 uM DzrR25416), the binding result is given as “binds”.
